In this assay the target is MBP.NS1 H3N2 (RSKV) (influenza A H3N2) (UniProt Q67253). Description: G assay titration.

DLG1 d1,2 (from UniProt Q12959 218-410) registered an EC50 of 20.8 mg/L.
The same measure for “PSD95 d1,2,3 (from UniProt P78352 59-402)”: 25 mg/L.
